Results from publication PMC3280276 (PLoS ONE, 2012).

How the values were obtained:
[1] = biological target: biotinylated peptide …, the final 11 residues of ribosomal stalk proteins P1 and P2
[2] = biological target: biotinylated peptide …, the final 11 residues of ribosomal stalk proteins P1 and P2; remark: listed apart in the source

wild-type SLT-1 A1 chain (catalytic A1 chain of Shiga-like toxin 1)
Kd [1]: 10.6 µM | Kd [2]: 13 µM

Read-outs that look alike come from different tables or passages of the source.
